Data reported in patent publication US20230304022, “CHIMERIC POLYPEPTIDES HAVING TARGETED BINDING SPECIFICITY” (The Scripps Research Institute, published 2023).
Changes are numbered by the printed parent chain.

B1: Avr 5'G biotin hairpin (dsDNA)
DNA: ATCTTAGCACCTGGTTGGAGGGGGTTTATCGGGTTTTCCCGATAAACCCCCTCCAACCAGGTGCTAAGAT
B2: Avr 5'A biotin hairpin (dsDNA)
DNA: B1 DNA with C30T, G41A
B3: Avr 5'C biotin hairpin (dsDNA)
DNA: B1 DNA with C30G, G41C

Tests used:
MBP-TALE AvrXa7 NT-αN = MBP-TALE AvrXa7 NT-αN (synthetic, [XXX]=RGA); assay: p228, FIG 26
MBP-TALE AvrXa7 NT-G = MBP-TALE AvrXa7 NT-G (synthetic, [XXX]=SRS); assay: p228, FIG 26

| Binder | binding result (MBP-TALE AvrXa7 NT-αN) | binding result (MBP-TALE AvrXa7 NT-G) |
| --- | --- | --- |
| B1 | binds | binds |
| B2 | binds |  |
| B3 | binds |  |
